TI data for seven compounds are collected here from US9428542B2, “Lupane triterpenoid derivatives and pharmaceutical use thereof” (priority 2012, dated 2016).

The subject of the data set is HIV-1IIIB. Briefly: HIV-1 full replication assay (HIV-1IIIB-infected MT-2 cells, supernatant read out on TZM-bl cells, β-Gal). Format: cell-based. The settings on record: Therapeutic Index (TI)=TC50/IC50. As for the experimental part: The antiviral activity of the compounds of the present invention was determined in a HIV-1 full replication assay.
In this assay, MT-2 cells that are infected with HIV-1IIIB were co-cultured with different concentration of the tested compounds for 3 days and then supernatant is transferred into new 384-well plates containing TZM-bl cells (also called JC53-bl). TZM-bl cells that could be infected by various kinds of HIV-1 strains stably express a great amount of HIV-1 receptor, co-receptor CD4 molecular, and co-receptor CXCR4 and CCR5. TZM-bl cells harbor LTR-luciferase and β-gal two report genes. The expression of luciferase and β-gal reporter directed by HIV-1 LTR can be activated by Tat protein generated after HIV infection, and the quantity of expression is proportional to the quantity of HIV-1. Compounds that interfere with virus replication in MT-2 cells, maturation of the virus, or post-entry steps in the HIV lifecycle decrease the luciferase signal or β-gal signal. In this experiment, BVM (Bevirimat, PA-457) is used as a positive control drug.
Method for Inhibiting HIV-1 Replication Assay:
The MT-2 cells are infected at a Multiciplicity (MOI) of 0.01 TCID50, and then the MT-2 cells suspension was diluted to a needed concentration. 90 μl of the MT-2 cells suspension from above was added into 384-well plates containing 10 μl of the tested compounds.
Compounds were dissolved in DMSO and tested as 11 points 3-fold serial dilutions. After addition of cells to compound plates, plates were placed to humidified 5% CO2 37 incubator for 3 days. 10 μl of cells culture supernatant from the incubated plates was transferred into new black 384-well plates.
Adjusted the TZMb1 cells concentration and 40 μl of TZMb1 cells was added into each well in the black 384-well plates. After addition of the TZMb1 cells to the black plates, black plates were placed to humidified 5% CO2 37 incubator for 24 h, then β-Gal activity was measured.
The anti viral activity %=(measured number-lowest mean number)/(highest mean number-lowest mean number)×100. The IC50 values were calculated by Median Equation and the IC curve was generated by Graphpad Prism V 5.03.
TC50 is referred to the toxicity in MT-2 cells by the compounds tested at 50% concentration; IC50 is referred to the inhibiting HIV-1IIIB replication in MT-2 cells by the compounds tested at 50% concentration; Therapeutic Index (TI)=TC50/IC50.
Take `CC(C)C1=C2[C@H]3CC[C@@H]4[C@@]5(C)CC[C@H](OC(=O)CC(C)(C)C(=O)O)C(C)(C)[C@@H]5CC[C@@]4(C)[C@]3(C)CC[C@@]2(c2nnc(Nc3ccc(Cl)cc3)o2)CC1=O` [Compound 133-1]: the TI turned out to be 2100. The same measure for `CC(C)C1=C2[C@H]3CC[C@@H]4[C@@]5(C)CC[C@H](OC(=O)CC(C)(C)C(=O)O)C(C)(C)[C@@H]5CC[C@@]4(C)[C@]3(C)CC[C@@]2(c2nnc(N(CCN(C)C)c3ccc(Cl)cc3)o2)CC1=O` [Compound 133-2]: 276471. To `CC(C)C1=C2[C@H]3CC[C@@H]4[C@@]5(C)CC[C@H](OC(=O)CC(C)(C)C(=O)O)C(C)(C)[C@@H]5CC[C@@]4(C)[C@]3(C)CC[C@@]2(Nc2nnc(-c3ccc(Cl)cc3)o2)CC1=O` [Compound 141-1] belongs 4727; to `CC(C)C1=C2[C@H]3CC[C@@H]4[C@@]5(C)CC[C@H](OC(=O)CC(C)(C)C(=O)O)C(C)(C)[C@@H]5CC[C@@]4(C)[C@]3(C)CC[C@@]2(Nc2nnc(-c3ccc(Cl)cn3)o2)CC1=O` [Compound 141-2], 92307.

`CC(C)C1=C2[C@H]3CC[C@@H]4[C@@]5(C)CC[C@H](OC(=O)CC(C)(C)C(=O)O)C(C)(C)[C@@H]5CC[C@@]4(C)[C@]3(C)CC[C@@]2(Nc2nnc(-c3ncc(Cl)cn3)o2)CC1=O` [Compound 141-3] displayed a TI of 12941.

In turn, `CC(C)C1=C2[C@H]3CC[C@@H]4[C@@]5(C)CC[C@H](OC(=O)CC(C)(C)C(=O)O)C(C)(C)[C@@H]5CC[C@@]4(C)[C@]3(C)CC[C@@]2(c2cc(=O)n(-c3ccc(Cl)cc3)n2CCN)CC1=O` [Compound 155-1] returned a TI of 48750.

In turn, `CC(C)C1=C2[C@H]3CC[C@@H]4[C@@]5(C)CC[C@H](OC(=O)CC(C)(C)C(=O)O)C(C)(C)[C@@H]5CC[C@@]4(C)[C@]3(C)CC[C@@]2(c2cc(=O)n(-c3ccc(Cl)cc3)n2CCN(C)C)CC1=O` [Compound 156-1] gave a TI of 111765.
